Experimental findings from US9309285B2, “Macrocyclic broad spectrum antibiotics” (priority 2012, dated 2016) are described below.

The chains behind the UniProt entries cited, without tags or fusion partners.
UniProt P00803, whole entry: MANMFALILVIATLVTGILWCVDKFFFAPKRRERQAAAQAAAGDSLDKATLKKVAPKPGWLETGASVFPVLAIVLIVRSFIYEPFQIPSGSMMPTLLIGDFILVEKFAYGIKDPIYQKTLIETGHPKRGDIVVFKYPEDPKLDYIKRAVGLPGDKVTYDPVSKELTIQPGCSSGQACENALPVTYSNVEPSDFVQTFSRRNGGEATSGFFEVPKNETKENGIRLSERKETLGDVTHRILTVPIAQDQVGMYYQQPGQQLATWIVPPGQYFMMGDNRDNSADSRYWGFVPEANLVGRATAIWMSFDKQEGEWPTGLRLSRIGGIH
UniProt P0A070, whole entry: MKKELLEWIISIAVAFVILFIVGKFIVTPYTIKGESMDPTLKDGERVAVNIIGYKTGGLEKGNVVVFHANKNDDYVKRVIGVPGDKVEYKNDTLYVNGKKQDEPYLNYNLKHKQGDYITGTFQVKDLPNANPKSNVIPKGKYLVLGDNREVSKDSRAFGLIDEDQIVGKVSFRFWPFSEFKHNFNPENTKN

The test system of assay [1] is Escherichia coli MC4100 harboring the IMP4213. Nature of the assay: MIC by broth micro-dilution (CLSI), E. coli. In kind it is cell-based. The following applies: E. coli MC4100 IMP4213 (increased outer-membrane permeability); cation adjusted Mueller Hinton Broth + 0.002% Tween-80; 35° C., 22 hours. As to the method:
(§1) In vitro antimicrobial activity of each compound was determined by measuring minimal inhibitor concentrations (MICs) using the broth micro-dilution technique as approved by the Clinical and Laboratory Standards Institute (CLSI) (Methods for Dilution Antimicrobial Susceptibility Tests for Bacteria that Grow Aerobically; Approved Standard—Eighth Edition. CLSI document M07-A8. Wayne, Pa.: Clinical and Laboratroy Standards; 2009). Antibacterial activity was measure against two strains of bacteria: a Methicillin Resistant Staphylococcus aureus strain USA 300 (NRS384) and a strain of Escherichia coli MC4100 harboring the IMP4213, which results in increased outer-membrane permeability (B Martin and Silhavy T. Imp/OstA is required for cell envelope biogenesis in Escherichia coli. (2002) Molecular Microbiology, 45(5), 1289-1302). Cells were inoculated onto plates of Trypyticase Soy Agar or Luria Agar respectively and grown at 35° C. for 20 hours. Inocula suspensions were prepared by scraping cells into 1 ml of testing media (cation adjusted Mueller Hinton Broth supplemented with 0.002% v/v Tween-80) and diluting to a final OD600 nm of 0.01.
(§2) Test compounds were prepared in DMSO at a concentration of 10 mg/ml. […]
In general terms: In broth dilution the organism is exposed to a series of concentrations in liquid medium.

The subject of assay [2] is Methicillin Resistant Staphylococcus aureus strain USA 300 (NRS384). Nature of the assay: MIC by broth micro-dilution (CLSI), S. aureus. The format is cell-based. The note with it: MRSA USA 300 (NRS384); cation adjusted Mueller Hinton Broth + 0.002% Tween-80; 35° C., 22 hours. As to the method: as §1, §2
The next assay addresses E. coli SPase (Escherichia coli, UniProt P00803). Nature of the assay: SPase enzyme inhibition assay, fluorogenic peptide substrate, E. coli. The format is biochemical. The note with it: read-out: IC 50 (nM) E. coli; 3 nM E. coli SPase, 20 μM substrate, 10 minutes pre-incubation, room temperature.
A further assay deals with S. aureus SPase (Staphylococcus aureus, UniProt P0A070). Nature of the assay: SPase enzyme inhibition assay, fluorogenic peptide substrate, S. aureus. In kind it is biochemical. The following applies: read-out: IC 50 (nM) S. aureus; 10 nM S. aureus SPase, 20 μM substrate, 10 minutes pre-incubation, room temperature.

Consider `CCCCc1ccc(-c2ccc(C(=O)N[C@@H](CCCCN)C(=O)N(C)[C@@H]3C(=O)N[C@@H](C)C(=O)N[C@H](C(=O)N[C@@H](C)B4O[C@@H]5C[C@@H]6C[C@@H](C6(C)C)[C@]5(C)O4)COCCCCc4cc3ccc4OC)cc2)cc1`, for which the “MIC (μg/mL) E. coli” value in assay [1] amounted to 1.4 µg/mL. Further, the “MIC (μg/mL) S. aureus” value in assay [2] was 4 µg/mL. The IC50 came to 96 nM at E. coli SPase and 210 nM on S. aureus SPase.
